Pooled drug test results. Numbers come from NIAID ChemDB, via PubChem.

Shared fields: tests in culture

Percent inhibition refers to the dose given; in toxicity tests it is the harm to the cells.

{"structure": "CCCCCCCCCCCCCCCCCCCCCCCOC(=O)NC(CCC(=O)O)(CCC(=O)O)CCC(=O)O", "endpoint": "MIC", "strain or isolate": "ATCC 927", "species": "Mycobacterium marinum", "result": "216 µg/mL"}
{"structure": "O=C(Oc1ccc(Cl)cc1C(=O)Nc1ccc(C(F)(F)F)cc1)c1cnccn1", "endpoint": "MIC", "conditions": "21 d", "strain or isolate": "6509/96", "species": "Mycobacterium kansasii", "result": "2 µM"}
{"structure": "CC(=O)OC[C@H]1O[C@@H](n2cc(/C=C/Br)c(=O)[nH]c2=O)C[C@@H]1OC(C)=O", "endpoint": "EC50", "strain or isolate": "ATCC 25291", "species": "Mycobacterium avium", "result": ">50 µg/mL"}
{"structure": "CCCCCCCCCCCCCCCCNC(=O)NC(CCC(=O)O)(CCC(=O)O)CCC(=O)O", "endpoint": "MIC", "strain or isolate": "AAy-P-1", "species": "Mycobacterium abscessus", "result": "14 µg/mL"}
{"structure": "O=c1[nH]c(=O)n([C@H]2C[C@H](O)[C@@H](CO)O2)cc1/C=C/I", "endpoint": "inhibition", "dose": "50 µg/mL", "strain or isolate": "ATCC 25291", "species": "Mycobacterium avium", "result": "0%"}
{"structure": "Cc1c(OCC(F)(F)F)ccnc1CSc1nc2ccccc2[nH]1", "read by": "resazurin", "endpoint": "MIC90", "strain or isolate": "ATCC 15483", "species": "Mycobacterium vaccae", "result": ">100 µM"}
{"structure": "CO[C@H]1/C=C/O[C@@]2(C)Oc3c(C)c(O)c4c(O)c(c5c(c4c3C2=O)NC2(CCN(CC(C)C)CC2)N=5)=NC(=O)/C(C)=C\\C=C\\[C@H](C)[C@H](O)[C@@H](C)[C@@H](O)[C@@H](C)[C@H](OC(C)=O)[C@@H]1C", "endpoint": "MIC", "strain or isolate": "119", "species": "Mycobacterium avium intracellulare", "result": "0.125 µg/mL"}
{"structure": "CC(=O)OC[C@@H]1CC[C@H](n2ccc(=O)[nH]c2=O)O1", "endpoint": "inhibition", "dose": "50 µg/mL", "strain or isolate": "ATCC 25291", "species": "Mycobacterium avium", "result": "0%"}
{"structure": "O=C(N[C@H](C(=O)Oc1ccc(Cl)cc1C(=O)Nc1ccc(Br)cc1)C1CCCCC1)OCc1ccccc1", "read by": "broth dilution", "endpoint": "MIC100", "strain or isolate": "CAMP 5644", "species": "Mycobacterium marinum", "result": "26.06 µM"}
{"structure": "CC[C@H]1OC(=O)[C@H](C)[C@@H](O[C@H]2C[C@@](C)(OC)[C@@H](OC(C)=O)[C@H](C)O2)[C@H](C)[C@@H](O[C@@H]2O[C@H](C)C[C@H](N(C)C)[C@H]2O)C(C)(O)C[C@@H](C)/C(=N\\OCCSc2ccccc2)[C@H](C)[C@@H](O)[C@]1(C)O", "endpoint": "MIC", "strain or isolate": "20096 (clarithromycin-resistant)", "species": "Mycobacterium avium complex", "result": "6.25 µg/mL"}
{"structure": "CC(=O)NC[C@H]1CN(c2ccc3c(c2)SCc2nccn2-3)C(=O)O1", "endpoint": "MIC", "species": "Mycoplasma pneumoniae", "result": "4 µg/mL"}
{"structure": "NCCS", "read by": "broth dilution / visual reading", "endpoint": "MIC100", "strain or isolate": "Clinical isolate MR27419N", "species": "Mycobacterium abscessus", "result": "125 µg/mL"}
{"structure": "CCCCCOc1ccc(-c2n[nH]c(C(F)(F)F)c2-c2ccccc2Cl)c(O)c1", "read by": "visual reading", "endpoint": "MIC", "species": "Mycobacterium marinum", "result": "50 µg/mL"}
{"structure": "CC[C@H]1OC(=O)[C@H](C)[C@@H](OC2C[C@@](C)(OC)[C@@H](O)[C@H](C)O2)[C@H](C)[C@@H](O[C@@H]2O[C@H](C)C[C@H](N(C)C)[C@H]2O)C(C)(O)C[C@@H](C)/C(=N\\OCC2CCCCC2)[C@H](C)[C@@H](O)[C@]1(C)O", "endpoint": "MIC", "strain or isolate": "20039 (clarithromycin-susceptible)", "species": "Mycobacterium avium complex", "result": "1.56 µg/mL"}
{"structure": "COc1ccc(-c2c(-c3ccc(OCc4ccc(C)cc4)cc3O)n[nH]c2C(F)(F)F)cc1OC", "read by": "visual reading", "endpoint": "MIC", "species": "Mycobacterium marinum", "result": "50 µg/mL"}
{"structure": "O=C(Oc1ccc(Cl)cc1C(=O)Nc1cccc(Cl)c1)c1cnccn1", "endpoint": "MIC", "conditions": "21 d", "strain or isolate": "6509/96", "species": "Mycobacterium kansasii", "result": "4 µM"}
{"structure": "CC[C@H]1OC(=O)[C@H](C)[C@@H](OC2C[C@@](C)(OC)[C@@H](O)[C@H](C)O2)[C@H](C)[C@@H](O[C@@H]2O[C@H](C)C[C@H](N(C)C)[C@H]2O)C(C)(O)C[C@@H](C)/C(=N\\OCCCOc2ccccc2)[C@H](C)[C@@H](O)[C@]1(C)O", "endpoint": "MIC", "strain or isolate": "20039 (clarithromycin-susceptible)", "species": "Mycobacterium avium complex", "result": "1.56 µg/mL"}
{"structure": "CCCCCCCCCCCCCCNC(=O)NC(CCC(=O)O)(CCC(=O)O)CCC(=O)O", "endpoint": "MIC", "strain or isolate": "AAy-P-1", "species": "Mycobacterium abscessus", "result": "144 µg/mL"}
{"structure": "CCCCCCCCCCCCCCCCO/N=C1\\[C@H](C)CC(C)(O)[C@H](O[C@@H]2O[C@H](C)C[C@H](N(C)C)[C@H]2O)[C@@H](C)[C@H](OC2C[C@@](C)(OC)[C@@H](O)[C@H](C)O2)[C@@H](C)C(=O)O[C@H](CC)[C@@](C)(O)[C@H](O)[C@H]1C", "endpoint": "MIC", "strain or isolate": "20039 (clarithromycin-susceptible)", "species": "Mycobacterium avium complex", "result": ">50 µg/mL"}
{"structure": "CCCCCCCCCCCCCCCCOC(=O)NC(C)(CCC(=O)O)CCC(=O)O", "endpoint": "MIC", "strain or isolate": "EO-P-1", "species": "Mycobacterium chelonae", "result": "54 µg/mL"}
{"structure": "CCCCCCCCCCCCC(=O)O[C@H]1[C@H](C)OC(O[C@H]2[C@H](C)[C@@H](O[C@@H]3O[C@H](C)C[C@H](N(C)C)[C@H]3O)C(C)(O)C[C@@H](C)/C(=N\\OCCCOc3ccccc3)[C@H](C)[C@@H](O)[C@](C)(O)[C@@H](CC)OC(=O)[C@@H]2C)C[C@@]1(C)OC", "endpoint": "MIC", "strain or isolate": "20096 (clarithromycin-resistant)", "species": "Mycobacterium avium complex", "result": ">50 µg/mL"}
{"structure": "O=c1[nH]c(=O)n([C@H]2C[C@H](O)[C@@H](CO)O2)cc1Cl", "endpoint": "EC50", "strain or isolate": "ATCC 25291", "species": "Mycobacterium avium", "result": ">50 µg/mL"}
{"structure": "O=C(Oc1ccc(Cl)cc1C(=O)Nc1ccc(Br)cc1)c1cnccn1", "endpoint": "MIC", "conditions": "14 d", "strain or isolate": "6509/96", "species": "Mycobacterium kansasii", "result": "2 µM"}
{"structure": "CC(=O)NC[C@H]1CN(c2ccc3c(c2)sc2nccn23)C(=O)O1", "endpoint": "MIC", "species": "Mycoplasma pneumoniae", "result": "16 µg/mL"}
{"structure": "CC[C@H]1OC(=O)[C@H](C)[C@@H](OC2C[C@@](C)(OC)[C@@H](O)[C@H](C)O2)[C@H](C)[C@@H](O[C@@H]2O[C@H](C)C[C@H](N(C)C)[C@H]2O)C(C)(O)C[C@@H](C)/C(=N\\OCCN(C)c2ccccc2)[C@H](C)[C@@H](O)[C@]1(C)O", "endpoint": "MIC", "strain or isolate": "20039 (clarithromycin-susceptible)", "species": "Mycobacterium avium complex", "result": "1.56 µg/mL"}
{"structure": "O=C(Oc1ccc(Cl)cc1)c1cnccn1", "endpoint": "MIC", "conditions": "7 d", "strain or isolate": "235/80", "species": "Mycobacterium kansasii", "result": "250 µM"}
{"structure": "O=c1[nH]c(=O)n([C@@H]2O[C@H](CO)[C@@H](O)[C@H]2O)cc1F", "endpoint": "EC50", "strain or isolate": "ATCC 25291", "species": "Mycobacterium avium", "result": ">50 µg/mL"}
{"structure": "O=C(Oc1ccc(Br)cc1C(=O)Nc1ccc(C(F)(F)F)cc1)c1cnccn1", "endpoint": "MIC", "conditions": "7 d", "strain or isolate": "6509/96", "species": "Mycobacterium kansasii", "result": "1 µM"}
{"structure": "CCCCCCCCCCCCCCCCCCCCCOC(=O)NC(CCC(=O)O)(CCC(=O)O)CCC(=O)O", "endpoint": "MIC", "strain or isolate": "EO-P-1", "species": "Mycobacterium chelonae", "result": "5 µg/mL"}
{"structure": "CC(=O)NC[C@H]1CN(c2ccc3c(c2)COCc2nccn2-3)C(=O)O1", "endpoint": "MIC", "species": "Mycoplasma pneumoniae", "result": "8 µg/mL"}
{"structure": "COc1ccc(-c2n[nH]c(C(F)(F)F)c2-c2ccccc2)c(O)c1", "read by": "visual reading", "endpoint": "MIC", "species": "Mycobacterium marinum", "result": ">50 µg/mL"}
{"structure": "CC(=O)NC[C@H]1CN(c2ccc3c(c2)OCC2CCCN32)C(=O)O1", "endpoint": "MIC", "species": "Mycoplasma pneumoniae", "result": ">32 µg/mL"}
{"structure": "O=c1[nH]c(=O)n([C@H]2C[C@H](O)[C@@H](CO)O2)cc1I", "endpoint": "inhibition", "dose": "50 µg/mL", "strain or isolate": "ATCC 25291", "species": "Mycobacterium avium", "result": "0%"}
{"structure": "COc1ccc(-c2[nH]ncc2-c2ccc(Cl)cc2)c(O)c1", "read by": "visual reading", "endpoint": "MIC", "species": "Mycobacterium marinum", "result": ">50 µg/mL"}
{"structure": "CC(C)[C@H](NC(=O)OCc1ccccc1)C(=O)Oc1ccc(Cl)cc1C(=O)Nc1ccc([N+](=O)[O-])cc1", "read by": "broth dilution", "endpoint": "MIC100", "strain or isolate": "CAMP 5644", "species": "Mycobacterium marinum", "result": "7.6 µM"}
{"structure": "C[C@@H]1CN(c2c(F)c(N)c3c(=O)c(C(=O)O)cn(C4CC4)c3c2F)C[C@H](C)N1", "endpoint": "MIC90", "strain or isolate": "20 strains", "species": "Mycoplasma hominis", "result": "≤0.01 µg/mL"}
{"structure": "CC(=O)NC[C@H]1CN(c2ccc3c(c2)OCc2cccn2-3)C(=O)O1", "endpoint": "MIC", "species": "Mycoplasma pneumoniae", "result": "4 µg/mL"}
{"structure": "CC[C@H]1OC(=O)[C@H](C)[C@@H](OC(=O)Cc2ccncc2)[C@H](C)[C@@H](O[C@@H]2O[C@H](C)C[C@H](N(C)C)[C@H]2O)C(C)(O)C[C@@H](C)/C(=N\\OCCCOc2ccccc2)[C@H](C)[C@@H](O)[C@]1(C)O", "endpoint": "MIC", "strain or isolate": "20096 (clarithromycin-resistant)", "species": "Mycobacterium avium complex", "result": "25 µg/mL"}
{"structure": "CCC(=O)NC[C@H]1CN(c2ccc3c(c2)OCc2nccn2-3)C(=O)O1", "endpoint": "MIC", "species": "Mycoplasma pneumoniae", "result": "4 µg/mL"}
{"structure": "CCCCCCCCCCCCCCCCC(=O)NC(C)(CCC(=O)O)CCC(=O)O", "endpoint": "MIC", "strain or isolate": "EO-P-1", "species": "Mycobacterium chelonae", "result": "18 µg/mL"}
{"structure": "O=c1[nH]c(=O)n([C@H]2C[C@H](O)[C@@H](CO)O2)cc1CO", "endpoint": "EC50", "strain or isolate": "ATCC 25291", "species": "Mycobacterium avium", "result": ">50 µg/mL"}

5 of the rows above, restated:

structure	read by	endpoint	dose	conditions	strain or isolate	species	result
COc1ccc(-c2n[nH]c(C(F)(F)F)c2-c2ccccc2)c(O)c1	visual reading	MIC				Mycobacterium marinum	>50 µg/mL
COc1ccc(-c2c(-c3ccc(OCc4ccc(C)cc4)cc3O)n[nH]c2C(F)(F)F)cc1OC	visual reading	MIC				Mycobacterium marinum	50 µg/mL
CCCCCCCCCCCCCCCCCCCCCOC(=O)NC(CCC(=O)O)(CCC(=O)O)CCC(=O)O		MIC			EO-P-1	Mycobacterium chelonae	5 µg/mL
CCC(=O)NC[C@H]1CN(c2ccc3c(c2)OCc2nccn2-3)C(=O)O1		MIC				Mycoplasma pneumoniae	4 µg/mL
O=C(Oc1ccc(Cl)cc1)c1cnccn1		MIC		7 d	235/80	Mycobacterium kansasii	250 µM

Lines come from different laboratories, so protocols vary. An empty or dashed field is not shown. MIC50, MIC90 and the like: level of inhibition, or share of isolates inhibited. ECn: concentration that inhibits the pathogen or its effect by n%.